The test concerns JRFL pseudovirus. Nature of the test: Cell-free lysis of JRFL pseudovirus, p24 release detected by ELISA. The following applies: read-out: EC50 for lysis of JRFL pseudovirus by 1,000 nM entry inhibitor + dilutions of Trx1; entry inhibitor fixed at 1,000 nM, Trx1 serially diluted 1/2 from 1,000 nM (EC50 on Trx1 concentration); 2 h at 37°C; mean of three independent experiments ± SD.

B1: Trx1: recombinant human thioredoxin-1, purchased from Cayman Chemical (protein)
chain: MVKQIESKTAFQEALDAAGDKLVVVDFSATWCGPCKMIKPFFHSLSEKYSNVIFLEVDVDDCQDVASECEVKCMPTFQFFKKGQKVGEFSGANKEKLEATINELV
Turning to B1, the EC50 was above 1 µM.

(Values after PMC11915811, “Conformational activation and disulfide exchange in HIV-1 Env induce cell-free lytic/fusogenic transformation and enhance infection” (Journal of Virology, 2025).)
